Results from patent US20030114445A1, “N3-substituted 6-anilinopyrimidines and methods to treat-Gram-positive bacterial and mycoplasmal infections” (priority 2001, published 2003).
In brackets after ≈: the same amount, converted by molar mass. Structures were worked out from names or drawings and are uncertain.

Amino acid sequences for entries named in this document (tags omitted).
UniProt P13267, whole entry: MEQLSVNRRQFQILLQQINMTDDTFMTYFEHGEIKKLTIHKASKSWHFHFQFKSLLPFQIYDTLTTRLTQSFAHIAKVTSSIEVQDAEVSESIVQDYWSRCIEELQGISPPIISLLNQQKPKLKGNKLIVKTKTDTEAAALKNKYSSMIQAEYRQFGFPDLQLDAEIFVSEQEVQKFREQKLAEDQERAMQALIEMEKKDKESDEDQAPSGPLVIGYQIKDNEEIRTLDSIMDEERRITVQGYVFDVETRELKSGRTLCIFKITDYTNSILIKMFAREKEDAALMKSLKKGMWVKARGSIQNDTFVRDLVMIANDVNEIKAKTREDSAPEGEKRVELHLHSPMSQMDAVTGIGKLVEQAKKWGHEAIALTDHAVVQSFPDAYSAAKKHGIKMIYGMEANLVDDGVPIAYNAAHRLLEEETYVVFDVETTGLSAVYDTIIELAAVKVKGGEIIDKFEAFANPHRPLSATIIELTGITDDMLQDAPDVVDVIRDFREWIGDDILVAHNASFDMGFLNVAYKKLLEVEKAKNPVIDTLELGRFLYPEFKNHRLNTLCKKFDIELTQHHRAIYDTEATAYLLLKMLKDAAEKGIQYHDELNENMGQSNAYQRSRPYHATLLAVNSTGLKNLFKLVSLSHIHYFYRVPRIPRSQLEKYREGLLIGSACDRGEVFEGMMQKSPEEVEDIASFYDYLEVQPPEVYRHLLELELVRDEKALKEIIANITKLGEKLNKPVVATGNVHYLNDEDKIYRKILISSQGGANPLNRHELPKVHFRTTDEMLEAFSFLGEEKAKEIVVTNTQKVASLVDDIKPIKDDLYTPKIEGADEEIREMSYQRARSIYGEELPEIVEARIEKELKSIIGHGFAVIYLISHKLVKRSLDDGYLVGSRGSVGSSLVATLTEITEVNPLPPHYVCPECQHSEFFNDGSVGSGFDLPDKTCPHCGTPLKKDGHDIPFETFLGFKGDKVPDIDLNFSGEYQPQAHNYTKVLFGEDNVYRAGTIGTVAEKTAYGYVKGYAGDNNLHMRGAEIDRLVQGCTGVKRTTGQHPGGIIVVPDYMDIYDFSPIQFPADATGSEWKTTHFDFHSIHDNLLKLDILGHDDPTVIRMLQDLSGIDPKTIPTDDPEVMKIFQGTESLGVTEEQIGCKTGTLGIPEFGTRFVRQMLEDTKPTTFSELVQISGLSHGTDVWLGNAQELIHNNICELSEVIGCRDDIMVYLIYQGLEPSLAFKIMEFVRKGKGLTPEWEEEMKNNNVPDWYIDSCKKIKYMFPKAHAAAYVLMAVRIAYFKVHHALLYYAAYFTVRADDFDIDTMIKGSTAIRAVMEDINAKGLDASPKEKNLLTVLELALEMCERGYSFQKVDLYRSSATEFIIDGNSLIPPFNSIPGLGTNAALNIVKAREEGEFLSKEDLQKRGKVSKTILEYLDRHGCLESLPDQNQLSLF

Assays:
B.subtilis pol IIIC = B.subtilis pol IIIC (Bacillus subtilis, UniProt P13267); settings: read-out: K1 B.subtilis pol IIIC; truncated assay, apparent inhibitor constant
E. fecium = test: Inhibition of bacterial growth on agar plates (MIC); assay type: cell-based; settings: 37° C., 24 hours
Procedure: (§1) Each compound is assayed against a panel of Bacillus, Enterococcus and Staphylococcus, and a Gram-negative bacterium Escherichia coli as negative control, grown in appropriate plate media solidified with 1.3% agar-agar. Stock solutions of the compounds in dimethylsulfoxide or water, depending on solubility, are added to sterile medium at a temperature of 60° C. This stock mixture is diluted with drug-free medium and used to make a series of Petri plates containing inhibitor in a series of two-fold serial dilutions, from about 80 to 0.625 μg/mL. One tenth mL of diluted bacteria containing 500-1000 colony-forming units (CFU) are plated and spread, and the plates incubated at 37° C. for 24 hours. MIC (minimum inhibitory concentration) is equivalent to the lowest concentration at which growth, i.e. colony formation, is not observed.

E. fecalis = test: as above; assay type: cell-based; settings: 37° C., 24 hours
Procedure: as §1

S.aureus (Smith) = test: as above; assay type: cell-based; settings: 37° C., 24 hours
Procedure: as §1

CCc1cc(Nc2cc(=O)n(CCCCN3C[C@@H](C)O[C@@H](C)C3)c(=O)[nH]2)ccc1C (relative stereo)
Ki (B.subtilis pol IIIC): 36 nM | MIC E. fecium (E. fecium): 20 µg/mL (≈ 48.2 µM) | MIC E. fecalis (E. fecalis): >20 µg/mL | MIC S.aureus (Smith) (S.aureus (Smith)): >20 µg/mL
